Compound potency records, mixed from different reports. Data source: NIAID ChemDB in PubChem.

All rows: whole-cell or culture tests; species: Mycobacterium tuberculosis

ECn: concentration that inhibits the pathogen or its effect by n%. MIC50, MIC90 and the like: level of inhibition, or share of isolates inhibited. Percent inhibition refers to the dose given; in toxicity tests it is the harm to the cells. An empty or dashed field is not shown. Conditions beyond the fields shown may differ between rows. MIC bound: limit read from a one-dose screen. Two numbers with a dash give a range or band.

SMILES,read by,setting,endpoint,tested at,strain or isolate,value
Cc1ccc2c(c1)C(=O)C(=O)N2CCCCCN=[N+]=[N-],,,MIC99,,MC2 6230,184 µM
CC[C@@H](CO)NCCN[C@@H](CC)CO,,,MIC,,90-0233 (isoniazid streptomycin-resistant),1 µg/mL
O=C(NCc1ccccn1)c1cc(Br)cc(Br)c1O,,14 d,MIC,,H37Rv,125 µM
[N-]=[N+]=NCCCCCN1C(=O)C2(OCCO2)c2ccccc21,,,MIC99,,MC2 6230,166 µM
O=C1C2=C(Nc3cc([N+](=O)[O-])ccc3N2)OC1c1ccccn1,BACTEC,,inhibition,12.5 µg/mL,H37Rv,48%
Cc1csc(NC(=O)c2cnccn2)n1,,,inhibition,6.25 µg/mL,H37Rv,0%
Cc1cnc(/C=N/NC(N)=S)cn1,,,MIC,,EMB-R,>12.5 µg/mL
CC(=O)CCCCCCCCCCCC/C=C/c1ccc2c(c1)OCO2,,,MIC,,,32 µg/mL
CC1(C)C=Cc2c(ccc3c(=O)c(-c4ccccc4)coc23)O1,BACTEC,,MIC bound,,H37Rv,>12.5 µg/mL
Cc1ccc(C(=O)Nc2nc3ccccc3s2)c(O)c1,,,MIC,,My 331/88,8 µM
C[N+](C)(C)CC(=O)N/N=C(\C(=O)NC1=C(Cl)C(=O)c2ccccc2C1=O)C(C#N)c1csc(-c2ccc([N+](=O)[O-])cc2)n1.[Cl-],BACTEC,,MIC bound,,H37Rv,>12.5 µg/mL
COc1cc(CCc2ccc3c(c2)OCO3)oc(=O)c1,,,MIC,,,4 µg/mL
CO[C@H]1/C=C/O[C@@]2(C)Oc3c(C)c(O)c4c(O)c(c5c(c4c3C2=O)NC2(CCN(CC(C)C)CC2)N=5)=NC(=O)/C(C)=C\C=C\[C@H](C)[C@H](O)[C@@H](C)[C@@H](O)[C@@H](C)[C@H](OC(C)=O)[C@@H]1C,,,MIC90,,20 strains,0.035–0.07 µg/mL
CC1(O)CC(c2ccccc2)SC(c2ccccc2)=N1,,,inhibition,6.25 µg/mL,H37Rv,6%
Cc1cc(C)cc(C(=O)NC(c2ccncc2)C2N=C(c3ccccc3)OC2=O)c1,BACTEC,,MIC bound,,H37Rv,>12.5 µg/mL
O=C(NCc1cccnc1)c1ccccc1O,,14 d,MIC,,H37Rv,500 µM
CC(C)(C)c1ncc(C(=O)Nc2nccs2)nc1Cl,,,inhibition,6.25 µg/mL,H37Rv,42%
NNC(=O)c1ccncc1,luminescence,,EC50,,H37Rv,0.35 µM
CCOC(=O)Oc1c(OC)cc(C(=O)O[C@@H]2C[C@@H]3CN4CCc5c([nH]c6cc(OC)ccc56)[C@H]4C[C@@H]3[C@H](C(=O)OC)[C@H]2OC)cc1OC,BACTEC,,inhibition,12.5 µg/mL,H37Rv,58%
O=C1/C(=C/c2ccco2)SC(=S)N1CCCCNc1ccnc2cc(Cl)ccc12,agar,,MIC,,H37Rv,6.25 µM
COc1c(-c2ccccc2)nc2ccc(Oc3ccccc3)nn12,BACTEC,,MIC,,H37Rv,12.5 µg/mL
COc1ccc(C(=O)Nc2cc(C)on2)c(O)c1,,,MIC,,My 331/88,125 µM
C/C=C/C/C=C/CCC(=O)[C@H]1O[C@H]1C(N)=O,,,MIC,,90-0233 (isoniazid streptomycin-resistant),2.5 µg/mL
COC(=O)N1CCc2c(OC)c(OC)c(O)c3c2[C@@H]1Cc1cc2c(cc1-3)OCO2,MTT,,MIC,,H37Rv,128 µM
O=C(/C=C/c1ccccc1)n1c(=O)c(=O)[nH]c2ccccc21,resazurin,,MIC,,H37Rv,8.928 µg/mL
C[C@H]1COc2c(N3CCN(C)CC3)c(F)cc3c(=O)c(C(=O)O)cn1c23,,,MIC,,001-010 (drug-resistant),0.5 µg/mL
CC1=C(C(=O)Nc2ccc(C)cc2)C(c2ccccc2)NC(=O)N1c1ccc(F)c(Cl)c1,resazurin,,MIC,,H37Rv,>6.25 µg/mL
CCCCCCCCCCCCCCC1CCC(CC(=O)OC)O1,,,MIC,,,>128 µg/mL
CC12CCC3C(C1)C(C(=O)O2)C(=O)OC3(C)C,BACTEC,,MIC bound,,H37Rv,>12.5 µg/mL
Cc1cnc(NC(=O)c2cnc(C(C)(C)C)cn2)s1,,,inhibition,6.25 µg/mL,H37Rv,65%
CCCC1CC(C)(O)N=C(c2ccccc2)S1,,,inhibition,6.25 µg/mL,H37Rv,15%
CC(C)(C)c1ccc(CNC(=O)c2c(O)cc(Cl)cc2Cl)cc1,,,MIC,,My 331/88,32 µg/mL
CC1COc2c(N3CCN(C)CC3)c(F)cc3c(=O)c(C(=O)O)cn1c23,,,MIC,,H37Rv,0.75 µg/mL
O=[N+]([O-])c1ccc(NN=C(c2ccccc2)c2ccccn2)nc1,resazurin,,MIC bound,,H37Rv,>6.25 µg/mL
CCCN1CCN(c2cc(=O)c3nc4c(oc3c2)c2c(=O)c3c(O)c(C)c5c(c34)=C(O)[C@@](C)(O/C=C/[C@H](OC)[C@@H](C)[C@@H](OC(C)=O)[C@H](C)[C@H](O)[C@H](C)[C@@H](O)[C@@H](C)/C=C/C=C(/C)C(=O)N2)O5)CC1,,,MIC90,,20 strains,0.07 µg/mL
CCOC(=O)C1=C(C)N(c2ccc(F)c(Cl)c2)C(=O)NC1c1cccc([N+](=O)[O-])c1,resazurin,,MIC,,H37Rv,>6.25 µg/mL
[N-]=[N+]=NCCCCCCN1C(=O)C2(OCCO2)c2cc(F)ccc21,,,MIC99,,MC2 6230,>299 µM
CC1=NN(C(=O)CC(=O)Nc2cccc(Cl)c2)C(=O)C1N=Nc1ccc(S(=O)(=O)c2ccc(N=NC3C(=O)N(C(=O)CC(=O)Nc4cccc(Cl)c4)N=C3C)cc2)cc1,BACTEC,,inhibition,12.5 µg/mL,H37Rv,0%
Cc1cccc(C(=O)NCc2cccnc2)c1O,,21 d,MIC,,H37Rv,250 µM
CC(=O)NC[C@H]1CN(c2ccc(N3CCN(c4ccc([N+](=O)[O-])s4)CC3)c(F)c2)C(=O)O1,,,MIC,,PC,≤0.125 µg/mL
CN(C)C(=S)SC1OC(CO)C(SC(=S)N(C)C)OC1CO,BACTEC,,MIC,,H37Rv,≥128 µg/mL
CCCCCCCCOCCCCOP(=O)(O)C[C@@H]1O[C@H](CO)[C@@H](O)[C@@H]1O,,,MIC,,H37Rv,>3.13 µg/mL
CC(C)(C)c1cnc(C(=O)Nc2nccs2)cn1,,,inhibition,6.25 µg/mL,H37Rv,47%
CO[C@H]1/C=C/O[C@@]2(C)Oc3c(C)c(O)c4c(O)c(c5c(c4c3C2=O)NC2(CCN(CC(C)C)CC2)N=5)=NC(=O)/C(C)=C\C=C\[C@H](C)[C@H](O)[C@@H](C)[C@@H](O)[C@@H](C)[C@H](OC(C)=O)[C@@H]1C,,,MIC,,4 isolates (SER531TRP),>5 µg/mL
O=C(Nn1cncn1)c1cc(Br)ccc1O,,,MIC,,My 331/88,1000 µM
CCCCCCCCCCCCOCCCCOP(=O)(O)C[C@@H]1O[C@H](CO)[C@@H](O)[C@@H]1O,,,MIC,,H37Rv,>3.13 µg/mL
Cc1cnc(NC(=O)c2cncc(Cl)n2)s1,,,inhibition,6.25 µg/mL,H37Rv,15%
Oc1ccc(Cl)cc1C(=S)NCc1ccc(Br)cc1,,,MIC,,My 331/88,1 µg/mL
CCC1C[N+]2=C(c3cc(OC)c(OC)cc3CC2)c2c1cc1n2CCc2cc(OC)c(OC)cc2-1,,,MIC,,KM-R,6.4 µg/mL
[N-]=[N+]=NCCCCCN1C(=O)C(=O)c2cc(F)ccc21,,,MIC99,,MC2 6230,>368 µM
CC(C)(C)c1ncc(C(=O)Nc2ccc(Cl)c(Cl)c2)nc1Cl,,,inhibition,6.25 µg/mL,H37Rv,0%
COC(=O)C1C(O)C(C)C(OC(C)=O)C(C)/C=C\C=C(/C)C(=O)Nc2c(C)c(OC(C)=O)c3c(c2O)C(=O)C(C)=C2OCOC(=C23)/C(C)=C/C(C)(O)C(O)C(C)C1O,BACTEC,,MIC bound,,H37Rv,≤12.5 µg/mL
OC12CCCC(C1)SC(c1ccccc1)=N2,,,EC50,,H37Rv,<6.25 µg/mL
CC1=C(C(=O)Nc2ccc(C)cc2)C(c2ccccc2Cl)NC(=O)N1c1ccc(F)c(Cl)c1,resazurin,,MIC,,H37Rv,>6.25 µg/mL
NNC(=O)c1c(O)ccc2ccccc12,BACTEC,,inhibition,12.5 µg/mL,H37Rv,18%
CC1=NNC(=O)C1Cn1c(=O)c(=O)[nH]c2ccccc21,resazurin,,MIC,,H37Rv,8.012 µg/mL
O=C(Nc1cncs1)c1ccc(Cl)cc1O,,,MIC,,My 331/88,16 µM
CO[C@H]1/C=C/O[C@@]2(C)Oc3c(C)c(O)c4c(O)c(c(/C=N/N5CCN(C)CC5)c(O)c4c3C2=O)NC(=O)/C(C)=C\C=C\[C@H](C)[C@H](O)[C@@H](C)[C@@H](O)[C@@H](C)[C@H](OC(C)=O)[C@@H]1C,,,MIC,,H37Rv,0.6 µg/mL
COc1cccc(C(=O)NCc2ccccn2)c1O,,14 d,MIC,,H37Rv,250 µM
O=C(Nn1cncn1)c1ccccc1O,,,MIC,,My 331/88,1000 µM
CC(=O)NC1C(OCc2ccccc2)OC(CO)C(O)C1OC(C)C(=O)NC(C(=O)NC(CCC(=O)NCCCCNc1c2ccccc2nc2cccc([N+](=O)[O-])c12)C(N)=O)C(C)C,resazurin,,MIC bound,,H37Rv,>6.25 µg/mL
COc1cc(/C=C/C(=O)NCCc2ccc(O)cc2)ccc1O,,,MIC,,,128 µg/mL
N#Cc1cccc(C2SCc3nc4ccccc4n32)c1,resazurin,,MIC bound,,H37Rv,>6.25 µg/mL
O=C(NCc1ccccn1)c1cc(Br)ccc1O,,14 d,MIC,,H37Rv,250 µM
[N-]=[N+]=NCCCCCCCCN1C(=O)C2(OCCO2)c2ccccc21,,,MIC99,,MC2 6230,>303 µM
COc1cc(/C=C/C(=O)n2c(=O)c(=O)[nH]c3ccccc32)ccc1O,resazurin,,MIC,,H37Rv,10.8 µg/mL
CCCCCCCCCOCCCCOP(=O)(O)C[C@@H]1O[C@H](CO)[C@@H](O)[C@@H]1O,,,MIC,,H37Rv,>3.13 µg/mL
O=C(NCc1ccccc1)c1cc(Cl)cc(Cl)c1O,,14 d,MIC,,H37Rv,32 µM
Cc1nnc2n1N=C(c1ccc(-c3ccc([N+](=O)[O-])cc3)o1)CS2,BACTEC,,inhibition,12.5 µg/mL,H37Rv,54%
Cc1ccc(C(=O)NCc2cccnc2)c(O)c1,,14 d,MIC,,H37Rv,250 µM
O=C(NCc1cccc(Br)c1)c1ccc(Br)cc1O,,,MIC,,My 331/88,32 µg/mL
COc1ccc(C(=O)Nn2cncn2)c(O)c1,,,MIC,,My 331/88,1000 µM
COc1ccc(/C=C2\SC(=S)N(CCCCNc3ccnc4cc(Cl)ccc34)C2=O)c2ccccc12,agar,,MIC,,H37Rv,6.25 µM
Cc1cc(NC(=O)c2cc(Cl)ccc2O)no1,,,MIC,,My 331/88,125 µM
CC(=O)N/N=C(\N)c1nc2c(n3nc(C)nc13)CCCC2,BACTEC,,MIC,,H37Rv,≥12.5 µg/mL
Cc1cccc(CNC(=S)c2ccccc2O)c1,,,MIC,,My 331/88,0.5 µg/mL
COc1ccc(C(=O)NCc2cccnc2)c(O)c1,,21 d,MIC,,H37Rv,500 µM
NCC[C@H](O)C(=O)N[C@@H]1C[C@H](N)[C@@H](O[C@H]2O[C@H](CN)[C@@H](O)[C@H](O)[C@H]2O)[C@H](O)[C@H]1O[C@H]1O[C@H](CO)[C@@H](O)[C@H](N)[C@H]1O,,,MIC,,90-0216 (DRUG-SUS),0.5 µg/mL
CC(C)(C)N1OC1c1ccc([N+](=O)[O-])o1,BACTEC,,inhibition,12.5 µg/mL,H37Rv,37%
CCCCCC1CC(C)(O)N=C(c2ccccc2)S1,,,inhibition,6.25 µg/mL,H37Rv,77%
COc1cc(CC(C)C(C)Cc2ccc(O)c(OC)c2)ccc1O,MTT,,MIC,,H37Rv,>128 µM
Cc1ccncc1C(=O)NN,BACTEC,,MIC bound,,H37Rv,>12.5 µg/mL
Cc1cc(NC(=O)c2cc(F)ccc2O)no1,,,MIC,,My 331/88,250 µM
C=C(C)CC[C@H]1CN(c2ccn(N3CCOCC3)c2)C(=O)O1,,,MIC50,,ATCC 35837 (ethambutol-resistant),>100 µM